Results from PMC10030959.

Target: SARS-CoV-2 full-length trimeric spike protein B.1 (B.1.126) (SARS-CoV-2) (UniProt P0DTC2)
Assay: ELISA

REGN 10933
EC50: 4 pM | IC50: 1100 pM
